A mixed list of measured activities; the numbers were collected in NIAID ChemDB.

Common to all: cytotoxicity tests; cells: MT-4; endpoint: CC50

Lines come from different laboratories, so protocols vary.

SMILES	value
C[C@]12CCC3C(CC=C4C[C@@H](O)CC[C@@]43C)C1CCC2C(=O)/C=C/c1ccc2c(c1)Cc1ccccc1-2	7.62 µM
NC1=NS(=O)(=O)N(Cc2ccccc2)c2ncn([C@H]3CS[C@@H](CO)O3)c21	>100 µg/mL
Cc1c(Sc2ccccc2)n(COCCF)c(=O)[nH]c1=O	191 µM
CCCOCn1c(Sc2ccccc2)c(C)c(=O)[nH]c1=O	140 µM
CCc1c(Cc2cccc3ccccc23)n(CSC)c(=O)[nH]c1=O	27 µM
O=S(=O)(c1cccc2cnccc12)N1CCNCC1	14.8 µg/mL
COc1cccc2c1nc(-c1ccccc1F)n2CC=C(C)C	14.3 µg/mL
NC1=NS(=O)(=O)N(Cc2ccccc2)c2c1ncn2[C@H]1CS[C@@H](CO)O1	>100 µg/mL
C[C@]12CCC3C(CC=C4C[C@@H](O)CC[C@@]43C)C1CCC2C(=O)/C=C/c1ccc(C(F)(F)F)cc1	55.38 µM
CC(C)c1nc(COC(=O)N[C@H](C(=O)N[C@@H](Cc2ccccc2)[C@H](O)CN2CCN(Cc3cncs3)C[C@H]2C(=O)NC(C)(C)C)C(C)C)cs1	57 µM
C/C1=C\C=C\C2(C)C=C(CO[C@H]3O[C@H](CO)[C@H](O)[C@H](O)[C@H]3O)C(C)CC23OC([O-])C(C3=O)C(O)/C=C/C2(C)C=C(C=O)C(C)CC23OC([O-])C(C3=O)C(O)/C(C)=C/C=C/C2C=C(CO[C@H]3O[C@H](CO)[C@H](O)[C@H](O)[C@H]3O)C(C)CC23OC([O-])C(C3=O)C(O)/C=C/C2(C)C=C(C=O)C(C)CC23OC([O-])C(C3=O)C1O	100 µg/mL
Nc1ccn([C@@H]2O[C@H](CO)[C@@H](F)[C@H]2O)c(=O)n1	43 µM
N#C/C(=C\c1ccccc1F)n1nnc2ccccc21	2.5 µM
CC(=O)Oc1ccc(/C=C/C(=O)Nc2ccc(S(=O)(=O)Nc3cc(C)cc(C)c3)cc2)cc1OC(C)=O	13 µM
NC1=NS(=O)(=O)N(Cc2ccccc2)c2ncn([C@@H]3CS[C@@H](CO)O3)c21	>100 µg/mL
CCOC(=O)c1cccn1S(=O)(=O)c1cccc(NC=O)c1	>200 µM
CN1C(=O)c2cccn2S(=O)(=O)c2ccc(Cl)cc21	110 µM
CCc1cn([C@H]2C[C@H](F)[C@@H](CO)O2)c(=O)[nH]c1=O	500 µM
N#C/C(=C\c1ccc[nH]1)n1nc2ccccc2n1	>100 µM
CCOCn1c(Sc2ccccc2)c(C)c(=O)[nH]c1=O	215 µM
CC(C)[C@H](NC(=O)OCc1cncs1)C(=O)N[C@@H](Cc1ccccc1)[C@H](O)CN1CCN(Cc2cncs2)C[C@H]1C(=O)NC(C)(C)C	>100 µM
Nc1ncnc2c1ncn2[C@@H]1CO[C@@H](CO)S1	>395 µM
Nc1nc(=O)n([C@H]2C=C[C@@H](CO)O2)cc1Cl	185 µM
Nc1nc2c(ncn2[C@H]2CS[C@@H](CO)O2)c(=O)[nH]1	>372 µM
Nc1nc(=O)n([C@H]2CC[C@@H](CO)O2)cc1Cl	>500 µM
CC(=O)SCCOP(=O)(OCCSC(C)=O)OC[C@@H]1C=C[C@H](n2cc(C)c(=O)[nH]c2=O)O1	>100 µM
CCOC(=O)c1cccn1S(=O)(=O)c1ccc([N+](=O)[O-])cc1	>200 µM
CCC(C)C(NC(=O)C(N)CO)C(=O)NC(C)C(=O)N[C@]12NC(=O)[C@]3(O)C4C5C(C41)[C@H]1C[C@@H]5C3C12	0.5 µM
CCCCCCCCCCCCCCNC(=O)C(CO[C@@H]1O[C@H](CO)[C@H](O)[C@H](O)[C@H]1O)NC(=O)CC(=O)NCCS(=O)(=O)O	>100 µM
NS(=O)(=O)c1ccc(NC(=O)c2ccccc2SSc2ccccc2C(=O)Nc2ccc(S(N)(=O)=O)cc2)cc1	>120 µM
Cc1cn([C@@H]2CS[C@@H](CO)O2)c(=O)[nH]c1=O	>410 µM
CC(C)CCC[C@@H](C)[C@H]1CC[C@H]2[C@@H]3CC[C@H]4C[C@@H](CCC=C(c5cc(Cl)c(O)c(C(=O)O)c5)c5cc(Cl)c(O)c(C(=O)O)c5)CC[C@]4(C)[C@H]3CC[C@]12C	>125 µM
Nc1ccn([C@H]2CO[C@H](CO)O2)c(=O)n1	>465 µM
O=c1ccn([C@H]2C[C@H](F)[C@@H](CO)O2)c(=O)[nH]1	75 µM
COc1cc(O)c2c(c1)C(=O)c1c(cc3c(c1O)-c1c(cc(C)c(C(=O)N[C@H](C)C(=O)O)c1O)[C@H](O[C@@H]1O[C@H](C)[C@H](O)[C@H](O[C@@H]4OC[C@@H](O)[C@H](O)[C@H]4O)[C@H]1O)[C@H]3O)C2=O	>100 µg/mL
COc1cccc2c1nc(-c1ccccc1F)n2Cc1cccc(C#N)c1	9.5 µg/mL
O=S(=O)(O)O.OCC1O[C@H](O)[C@@H](O)[C@H](O)C1O	232 µg/mL
CCc1c(Cc2cccc3ccccc23)nc(SCSC)[nH]c1=O	>100 µM
N#C/C(=C/c1ccccc1[N+](=O)[O-])n1nnc2ccccc21	31 µM
Cc1cc(C)cc(N2C(=O)CSC2c2c(F)cccc2Cl)c1	33.35 µM
COc1cccc2c1nc(-c1ccccc1F)n2CCC(C)C	12.57 µg/mL
CCN1C(=O)c2cccn2S(=O)(=O)c2cc(Cl)ccc21	283 µM
O=C(/C=C/c1ccc(O)c(O)c1)Nc1ccc(S(=O)(=O)Nc2cccc(Cl)c2F)cc1	21 µM
N#C/C(=C\c1ccc(C(F)(F)F)cc1C(F)(F)F)n1nnc2ccccc21	11 µM
O=C1C=CN([C@@H]2CS[C@@H](CO)O2)S(=O)(=O)N1	>100 µg/mL
Nc1nc(N)c2ncn([C@H]3CS[C@@H](CO)O3)c2n1	>373 µM
CC(=O)OCC1=C[C@@H]2C(=O)[C@]3(C=C(C)[C@H](OC(C)=O)[C@@]3(O)[C@@H]1OC(C)=O)[C@H](C)C[C@@H]1[C@H]2C1(C)C	>211 µM
C[C@]12CCC3C(CC=C4C[C@@H](O)CC[C@@]43C)C1CCC2C(=O)/C=C/c1ccccc1C(=O)O	13.98 µM
CC(=O)Oc1cc(C(=O)Nc2ccc(S(=O)(=O)Nc3cccc(Cl)c3F)cc2)cc(OC(C)=O)c1OC(C)=O	>25 µM
O=c1[nH]c(=O)n([C@H]2C[C@H](F)[C@@H](CO)O2)cc1/C=C/Br	300 µM
CC(C)c1nc(COC(=O)N[C@H](C(=O)N[C@@H](Cc2ccccc2)[C@H](O)CN2CCN(Cc3ccc(F)cc3)C[C@H]2C(=O)NC(C)(C)C)C(C)C)cs1	15 µM
C=CCN1C(=O)c2cccn2S(=O)(=O)c2ccc(Cl)cc21	32 µM
Cc1cccc(N2C(=O)CSC2c2c(F)cccc2F)c1	207.8 µM
Cc1c(Sc2ccccc2)n(COCc2ccccc2)c(=O)[nH]c1=O	123 µM
C[C@]1(CO)O[C@@H](n2ccc(N)nc2=O)[C@H](O)[C@@H]1O	>100 µM
CCCCCCCCCCCCCC(=O)NCC(C(=O)CCCCCCCCCCCCC)C(=O)NCCNC(=O)C(O)C(O[C@@H]1O[C@H](CO)[C@H](O)[C@H](O)[C@H]1O)C(O)CO	>100 µM
O=c1[nH]cnc2c1[nH]c[n+]2[C@@H]1CS[C@@H](CO)O1	>410 µM
CCSCSc1nc(Cc2cccc3ccccc23)c(CC)c(=O)[nH]1	>100 µM
Cc1cnc(=O)n([C@H]2C[C@H](F)[C@@H](CO)O2)c1	300 µM
CCOC(=O)c1cccn1S(=O)(=O)c1cc(Cl)ccc1NC(=O)Oc1ccc(C)cc1	>200 µM
O=C(O)CCCCCCCCCCCCC(=O)NC(CO[C@@H]1O[C@H](CO)[C@H](O)[C@H](O)[C@H]1O)C(=O)NCCO	>100 µM
CC(C)c1nc(COC(=O)N[C@H](C(=O)N[C@@H](Cc2ccccc2)[C@H](O)CN2CCN(Cc3ccc4c(c3)OCO4)C[C@H]2C(=O)NC(C)(C)C)C(C)C)cs1	13 µM
CC(=O)NS(=O)(=O)c1c(C)cc(C)c(-c2c3nc(c(-c4c(C)cc(C)c(S(=O)(=O)NC(C)=O)c4C)c4ccc([nH]4)c(-c4c(C)cc(C)c(S(=O)(=O)NC(C)=O)c4C)c4nc(c(-c5c(C)cc(C)c(S(=O)(=O)NC(C)=O)c5C)c5ccc2[nH]5)C=C4)C=C3)c1C	75 µg/mL
CCc1cccc(N2C(=O)CSC2c2c(F)cccc2Cl)c1	34.24 µM
O=c1ccn([C@@H]2CS[C@@H](CO)O2)c(=O)[nH]1	>437 µM
NC1=NS(=O)(=O)N(Cc2ccccc2)c2c1ncn2[C@@H]1CS[C@@H](CO)O1	>100 µg/mL
N#C/C(=C\c1cccc(Cl)c1Cl)n1nnc2ccccc21	4 µM
CCOC(=O)c1cccn1S(=O)(=O)c1cc(Cl)ccc1NC(=O)CS(C)(=O)=O	>200 µM
COc1cccc2c1nc(-c1ccccc1F)n2Cc1c(F)ccc(F)c1F	14.5 µg/mL
Cc1c(Sc2ccccc2)n(COCc2ccccc2)c(=O)[nH]c1=O	63 µM
C[C@]1(CO)O[C@@H](n2ccc(=O)[nH]c2=O)[C@H](O)[C@@H]1O	>100 µM
Nc1nc(N)c2ncn([C@@H]3CS[C@@H](CO)O3)c2n1	>373 µM
CCOCn1c(Sc2ccccc2)c(CC)c(=O)[nH]c1=O	133 µM
CN[C@@H]1[C@H](O[C@@H]2OC[C@@H](O)[C@H](O)[C@H]2O)[C@@H](O)[C@H](O[C@H]2c3cc(C)c(C(=O)N[C@H](C)C(=O)O)c(O)c3-c3c(cc4c(c3O)C(=O)c3cc(OC)cc(O)c3C4=O)[C@@H]2O)O[C@@H]1C	>30 µg/mL
CCOC(=O)c1cccn1S(=O)(=O)c1cc(Cl)ccc1NC=O	>200 µM
O=C1CSC(c2c(Cl)cccc2Cl)N1c1cc(Cl)cc(Cl)c1	18.06 µM
CC(C)c1nc(COC(=O)N[C@H](C(=O)N[C@@H](Cc2ccccc2)[C@H](O)CN2CCN(Cc3ccccc3)C[C@H]2C(=O)NC(C)(C)C)C(C)C)cs1	45 µM
Nc1ncnc2c1ncn2[C@@H]1O[C@H](CO)[C@](O)(C(F)(F)F)[C@H]1O	66 µM
CCN1C(=O)c2cccn2S(=O)(=O)c2ccc(Cl)cc21	>300 µM

Repeating the first 7 entries:

SMILES,value
C[C@]12CCC3C(CC=C4C[C@@H](O)CC[C@@]43C)C1CCC2C(=O)/C=C/c1ccc2c(c1)Cc1ccccc1-2,7.62 µM
NC1=NS(=O)(=O)N(Cc2ccccc2)c2ncn([C@H]3CS[C@@H](CO)O3)c21,>100 µg/mL
Cc1c(Sc2ccccc2)n(COCCF)c(=O)[nH]c1=O,191 µM
CCCOCn1c(Sc2ccccc2)c(C)c(=O)[nH]c1=O,140 µM
CCc1c(Cc2cccc3ccccc23)n(CSC)c(=O)[nH]c1=O,27 µM
O=S(=O)(c1cccc2cnccc12)N1CCNCC1,14.8 µg/mL
COc1cccc2c1nc(-c1ccccc1F)n2CC=C(C)C,14.3 µg/mL

CCn is the concentration with n% toxicity to the cells.